Measurements reported in PubChem BioAssay AID504761 (Drosophila RNAi Screening Center, 2011)
The deposit covers about 22,000 reagents; below is a random part of those with a known target gene and a result. Over the whole deposit, 116 (0.52%) got an active call. 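Calls depend on retest data that are not deposited; infection was ranked per plate without normalising between plates; the unit of the infection score is not given.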 Raw values vary from plate to plate and are shown uncorrected. The numbers tell different reagents against one gene apart. A plus sign joins genes that one reagent is predicted to hit. No sequences are given here. Not stated in the record: the amount of reagent, the time to read-out.

Test: 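Fly genes whose silencing reduces dengue virus type 2 infection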 (primary screen)
System: D.Mel-2 cells from Drosophila
Reagent: long dsRNA against Drosophila genes
Challenge: infection with dengue virus type 2; dose and infection time not stated
Measured: 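Cells stained for dengue envelope protein and imaged; percent of infected cells per well on duplicate plates, ranked by infection, with stained nuclei counted for cell number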
Direction: infection score: higher = more virus-infected cells; cell count: higher = more cells in the well
Active means: 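Low infection ranks in the two replicates (chance level up to 0.065) followed by a retest with a 1.5-fold or larger significant decrease, p below 0.05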
Calls: active = confirmed: knock-down lowers infection; inactive = not picked or not confirmed

gene | reagent | infection score, replicate 1 | infection score, replicate 2 | cell count, replicate 1 | cell count, replicate 2 | outcome
mRpS33 | 1 | 4.23 | 5.84 | 5701 | 5961 | inactive
Rpn3 | 1 | 8.79 | 11.5 | 4016 | 4713 | inactive
Rpn3 | 2 | – | 8.72 | 362 | 1513 | inactive
Cyp28c1 | 1 | 11.7 | 22.9 | 2301 | 5211 | inactive
CG11674 | 1 | 4.94 | 2.24 | 6457 | 6461 | inactive
Ccs | 1 | 11 | 16.4 | 6004 | 6129 | inactive
Herp | 1 | 1.64 | 0.76 | 6025 | 6066 | inactive
Herp | 2 | 11.5 | 15.3 | 6589 | 6421 | inactive
CG33506 | 1 | 18.3 | 14 | 5472 | 6459 | inactive
Caf1-105 | 1 | 10.3 | 1.96 | 5822 | 6536 | inactive
CG6724 | 1 | 5.39 | 5.86 | 6202 | 6402 | inactive
Pp2B-14D | 1 | 2.03 | 2.59 | 6467 | 6257 | inactive
Pp2B-14D | 2 | 1.78 | 2.78 | 6630 | 6790 | inactive
GckIII | 1 | 7.63 | 16.7 | 6909 | 3944 | inactive
Gr36c | 1 | 2.92 | 1.65 | 6544 | 7049 | inactive
Gr36c | 2 | 8.1 | 1.58 | 6114 | 6280 | inactive
CG15412 | 1 | 3.07 | 2.56 | 6585 | 6494 | inactive
CG9920 | 1 | 2.12 | 0.73 | 6272 | 6423 | inactive
Coq4 + frc | 1 | 15.4 | 17.5 | 6033 | 5103 | inactive
Coq4 + frc | 2 | 8.26 | 24.7 | 4700 | 5045 | inactive
Gr39b | 1 | 1.27 | 0.66 | 6361 | 6247 | inactive
Gr39b | 2 | 4 | 6.13 | 5796 | 5905 | inactive
Atet | 1 | 5.42 | 5.64 | 6713 | 6630 | inactive
